Measured values from several laboratories, pooled; numbers as filed in NIAID ChemDB.

Common to all: whole-cell or culture tests; species: HIV-1; cell line: HeLa; read-out: EC50

Neighbouring rows are from separate reports.

structure | strain or isolate | changes | method | setting | result
CN(C)c1ccc(-n2c(SCC(=O)Nc3ccc(S(N)(=O)=O)cc3Cl)nnc2C(F)(F)F)c2ccccc12 | - | - | - | - | 0.002 µM
Cc1cc(S(N)(=O)=O)ccc1NC(=O)COc1ccc(Cl)cc1C(=O)c1cc(C#N)cc(C(=O)O)c1 | - | V106A | - | - | >2 µM
Cn1c2ccccc2c2c1cc(C#N)c(=O)n2-c1ccc([N+](=O)[O-])cc1 | NL4-3 WT | - | luciferase | - | 0.036 µM
CCc1ccc(-n2c(C)nnc2SCC(=O)Nc2ccccc2Br)c2ccccc12 | - | Y188L | - | - | 0.058 µM
CC[C@H](C)[C@H](C(=O)O)N1C[C@H](CN2CCC(c3cc(Cc4cccc5ccccc45)nn3CC)CC2)[C@@H](c2cccc(F)c2)C1 | BaL | - | β-galactosidase | 50% human serum | <0.011 µM
Cc1cn([C@H]2C[C@H](N=[N+]=[N-])[C@@H](CO)O2)c(=O)[nH]c1=O | NRTI resistant | RT-D67N T69N M184V T215F K219Q | luciferase | - | 0.079 µM
CCn1nc(Cc2ccc(OCC(F)(F)F)cc2)cc1C1CCN(C[C@H]2CN([C@@H](C(=O)O)C(C)(C)C)C[C@@H]2c2cccc(F)c2)CC1 | BaL | - | β-galactosidase | - | <0.0012 µM
COc1cc(C#N)cc(C(=O)c2cc(Cl)ccc2OCC(=O)Nc2ccc(S(N)(=O)=O)cc2C)c1 | - | WTRVA | - | - | 0.00009 µM
CC[C@@H](C)[C@H](C(=O)O)N1C[C@H](CN2CCC(c3cc(Cc4ccc5ccccc5c4)nn3CC)CC2)[C@@H](c2cccc(F)c2)C1 | BaL | - | β-galactosidase | 50% human serum | <0.3 µM
Cc1cc(S(N)(=O)=O)ccc1NC(=O)COc1ccc(Cl)cc1C(=O)c1cc(C#N)cc([N+](=O)[O-])c1 | - | WTRVA | - | - | 0.0005 µM
Cc1nnc(SCC(=O)Nc2ccc(S(N)(=O)=O)cc2Cl)n1-c1ccc(N(C)C)c2ccccc12 | - | Y188L | - | - | 0.087 µM
Cc1cc(S(N)(=O)=O)ccc1NC(=O)COc1ccc(Cl)cc1C(=O)c1cc(C#N)cc(OC(F)F)c1 | - | K103N | - | - | 0.0012 µM
Cc1cc2c(C)ccc(-n3c(C)nnc3SCC(=O)Nc3ccccc3Br)c2cc1C | - | Y188L | - | - | 0.11 µM
N#Cc1cc2[nH]c3ccccc3c2n(-c2ccc([N+](=O)[O-])cc2)c1=O | NNRTI-resistant | RT-Y188L | luciferase | - | 0.156 µM
Cc1ccc(NC(=O)CSc2nnc(C)n2-c2cccc3ccccc23)c(Cl)c1 | - | Y188L | - | - | 0.589 µM
CCCOc1ccc(Cc2cc(C3CCN(C[C@H]4CN([C@@H](C(=O)O)C(C)(C)C)C[C@@H]4c4cccc(F)c4)CC3)n(CC)n2)cc1 | BaL | - | β-galactosidase | - | <0.0004 µM
Cc1ccc(NC(=O)CSc2nnc(C)n2-c2ccc(C)c3ccccc23)c(Cl)c1 | - | Y188L | - | - | 0.1 µM
CCn1nc(Cc2ccc(F)cc2F)cc1C1CCN(C[C@H]2CN([C@@H](C(=O)O)C3CCCCC3)C[C@@H]2c2cccc(F)c2)CC1 | BaL | - | β-galactosidase | 50% human serum | <0.033 µM

Repeating the final 2 entries:

structure,strain or isolate,changes,method,setting,result
Cc1ccc(NC(=O)CSc2nnc(C)n2-c2ccc(C)c3ccccc23)c(Cl)c1,-,Y188L,-,-,0.1 µM
CCn1nc(Cc2ccc(F)cc2F)cc1C1CCN(C[C@H]2CN([C@@H](C(=O)O)C3CCCCC3)C[C@@H]2c2cccc(F)c2)CC1,BaL,-,β-galactosidase,50% human serum,<0.033 µM

Blank or dashed fields: not listed here. ECn: concentration that inhibits the pathogen or its effect by n%.